Measured values from several laboratories, pooled; numbers as filed in NIAID ChemDB.

Shared fields: whole-cell or culture tests; organism: HIV-1; cell line: CEM; measure: EC50

Blank or dashed fields: not listed here. Neighbouring rows are from separate reports. ECn is the concentration giving n% inhibition of infection, replication or growth.

structure	strain	mutations	read by	setting	result
Cc1cc(N(Cc2cccc3ccccc23)C(=O)C(Cl)Cl)cc(=O)o1	IIIB	-	MTT	-	≥10 µM
Cc1ccnc2c1NC(=O)c1cccnc1N2C1CC1	IIIB	RT-E138K	syncytia	-	0.03 µM
Nc1nc(=O)n([C@@H]2CC[C@H](CO)O2)cc1F	-	-	-	-	0.5 µM
Fc1cccc(Cl)c1C1OCc2nc3ccccc3n21	TIBO R82150-resistant (RT K103N)	RT-K103N	cytopathic effect / MTT	-	>14.69 µM
Fc1ccc(F)c(C2OCc3nc4ccccc4n32)c1	IIIB	RT-E138K	cytopathic effect	-	≥15 µM
CC(C)(C)NC(=O)c1ccccc1C[C@@H](O)[C@H](CSc1ccc2ccccc2c1)NC(=O)c1cccc2c1CCN2	-	-	cytopathic effect	-	>50 µg/mL
COC(=O)[C@H](C)NP(=O)(OC[C@H]1O[C@@H](n2cc(C)c(=O)[nH]c2=O)C[C@@H]1N=[N+]=[N-])Oc1ccccc1	IIIB	-	syncytia	-	0.06 µM
Cc1c(-c2cnccn2)ssc1=S	IIIB	-	MTT / p24	-	~14 µM
Cc1cn([C@H]2C[C@H](N=[N+]=[N-])[C@@H](CO)O2)c(=O)[nH]c1=O	P-1 (RT-K103N Y144F)	RT-K103N Y144F	cytopathic effect	-	0.02 µM
Cc1cc(NCCc2c[nH]c3ccccc23)c(C(=O)C(Cl)Cl)c(=O)o1	IIIB	-	MTT	-	≥2 µM
COc1ccc2c(c1)N(C(=O)OC(C)C)[C@@H](CSC)C(=S)N2	IIIB WT	-	syncytia	-	0.00294 µM
N#CCN1C(=O)N(Cc2ccccc2)S(=O)(=O)c2cscc21	IIIB	RT-L100I	syncytia	-	7.8 µM
CC(=O)c1ccc(C)cc1NC(C(N)=O)c1c(Cl)cccc1Cl	HXB2 (RT E138A S162C E169D T200A L214F) Clinical isolate	RT-E138A S162C E169D T200A L214F	syncytia	-	0.023 µM
O=C1Nc2cscc2S(=O)(=O)N1c1ccccc1Br	IIIB	-	syncytia	-	>55.7 µM
Cc1cn([C@@H]2O[C@H](CO[Si](C)(C)C(C)(C)C)C3(OS(=O)(=O)C=C3N)[C@H]2O[Si](C)(C)C(C)(C)C)c(=O)n(C)c1=O	HXB2 (RT E138A S162C E169D T200A L214F) Clinical isolate	RT-E138A S162C E169D T200A L214F	syncytia	-	0.662 µM
CC[C@H]1C(=O)Nc2ccc(F)cc2N1C(=O)OC(C)C	C-1 (RT-K101E)	RT-K101E	cytopathic effect	-	0.0025 µg/mL
Cc1cc(NCc2ccccc2)c(C(=O)C(Cl)Cl)c(=O)o1	IIIB	-	MTT	-	>2 µM
COc1cccc2cc(C(=O)N[C@@H](CC(N)=O)C(=O)N[C@@H](Cc3ccccc3)[C@H](O)C(=O)N3C[C@@H](Cl)C[C@H]3C(=O)NC(C)(C)C)oc12	IIIB	-	p24	-	<0.06 µM
Nc1ncnc2c1ncn2CCOCP(=O)(O)O	Clinical isolate HA20.17	RT-A62V V75I F77L Q151M M184V	syncytia	-	9 µg/mL
Fc1cccc(F)c1C1OCc2nc3ccccc3n21	TIBO R82150-resistant (RT K103N)	RT-K103N	cytopathic effect / MTT	-	≥13.85 µM
Cc1cc(N[C@H](C)c2cccc3ccccc23)cc(=O)o1	IIIB	-	MTT	-	>10 µM
COC(=O)[C@H](C)NP(=O)(OC[C@@H]1C=C[C@H](n2cc(C)c(=O)[nH]c2=O)O1)Oc1ccccc1	IIIB	-	syncytia	-	0.07 µM
Cc1ccnc(N2C(=O)CSC2c2c(Cl)cccc2Cl)n1	-	RT-L100I	cytopathic effect	-	0.44 µM
Cn1cc(C(=O)N[C@@H](CC(N)=O)C(=O)N[C@@H](Cc2ccccc2)[C@H](O)C(=O)N2C[C@@H](Cl)C[C@H]2C(=O)NC(C)(C)C)c2ccccc21	IIIB	-	p24	-	<0.2 µM
Cc1cc(NCCc2cccc3ccccc23)cc(=O)o1	IIIB	-	MTT	-	>10 µM
Cc1cc(C)nc(N2C(=O)CSC2c2c(Cl)cccc2Cl)n1	IIIB	-	cytopathic effect	-	0.025 µM
CC(C)(C)NC(=O)N(Cc1ccncc1)C[C@@H](O)[C@H](Cc1ccccc1)NC(=O)[C@H](CC(N)=O)NC(=O)c1ccc2ccccc2n1	IIIB	-	cytopathic effect / MTT	-	0.03 µM
CC(C)=CCN1Cc2cc(Cl)cc3[nH]c(=S)n(c23)C[C@@H]1C	IIIB	-	cytopathic effect	-	0.016 µg/mL
Cc1cn([C@H]2C=C[C@@H](CO)O2)c(=O)[nH]c1=O	LAV	-	p24	-	0.15 µM
CC(C)(C)NC(=O)c1ccccc1C[C@@H](O)[C@H](CSc1ccc2ccccc2c1)NC(=O)c1ccnc2ccccc12	-	-	cytopathic effect	-	5.6 µg/mL
Nc1ncnc2c1ncn2CC(OCP(=O)(O)O)Sc1ccccc1	-	-	cytopathic effect	-	53.3 µg/mL
CCn1c(=O)c(C)cn([C@@H]2O[C@H](CO[Si](C)(C)C(C)(C)C)C3(OS(=O)(=O)C=C3N)[C@H]2O[Si](C)(C)C(C)(C)C)c1=O	HXB2 (RT E138A S162C E169D T200A L214F) Clinical isolate	RT-E138A S162C E169D T200A L214F	syncytia	-	32.4 µM
Nc1nc2c(ncn2CCOCP(=O)(O)O)c(=O)[nH]1	IIIB	-	-	-	0.8 µM
O=C1Nc2c(csc2[N+](=O)[O-])S(=O)(=O)N1Cc1ccccc1	IIIB	-	syncytia	-	>2.3 µM
c1ccc(C2OCc3nc4ccccc4n32)cc1	IIIB	-	cytopathic effect	-	8.5 µM
C=C(COCP(=O)(O)O)Cn1cnc2c(=O)[nH]c(N)nc21	HE	-	-	-	19.5 µM
COC(=O)[C@H](C)NP(=O)(OC[C@@H]1CC[C@H](n2cnc3c(N)ncnc32)O1)Oc1ccccc1	IIIB	-	syncytia	-	0.016 µM
Nc1nc(=O)n([C@@H]2CS[C@H](CO)O2)cc1F	IIIB	-	cytopathic effect	-	0.1 µM
Cc1cc(S(=O)(=O)Cc2cccc3ccccc23)cc(=O)o1	IIIB	-	MTT	-	>10 µM
Cc1ccc(N)cc1C(=O)N[C@@H](CSc1ccc2ccccc2c1)[C@H](O)Cc1ccccc1C(=O)NC(C)(C)C	-	-	cytopathic effect	-	1.3 µg/mL
COC(=O)[C@H](C)NP(=O)(OC[C@@H]1CC[C@H](n2cnc3c(N)ncnc32)O1)Oc1ccccc1	IIIB	-	syncytia	-	0.016 µM
Cc1cn([C@H]2C[C@H](N=[N+]=[N-])[C@@H](CO)O2)c(=O)[nH]c1=O	IIIB	-	cytopathic effect	-	0.007 µM
CCOCn1c(Cc2ccccc2)c(C(C)C)c(=O)[nH]c1=O	IIIB	-	ELISA	-	0.03 µM
COC(=O)[C@H](C)NP(=O)(OC[C@@H]1C=C[C@H](n2cnc3c(N)ncnc32)O1)Oc1ccccc1	IIIB	-	syncytia	-	0.006 µM
Cc1ccnc2c1NC(=O)c1cccnc1N2C1CC1	IIIB	-	cytopathic effect	-	0.044 µM
O=C1N(Cc2ccccc2)c2cscc2S(=O)(=O)N1Cc1ccccc1	IIIB	-	syncytia	-	1.8 µM
CC(C)=CCOc1cc(NC(=S)c2ccoc2C)ccc1Cl	IIIB	RT-L100I	cytopathic effect	-	0.008 µg/mL
CCN1C(=O)N(Cc2ccccc2)S(=O)(=O)c2cscc21	IIIB	RT-Y188H	syncytia	-	>310 µM
Cc1cn([C@H]2C[C@H](N=[N+]=[N-])[C@@H](CO)O2)c(=O)[nH]c1=O	LAV-1	-	cytopathic effect	14 d	0.1 µM
COc1cc(C)nc(N2C(=O)CSC2c2c(Cl)cccc2Cl)n1	-	RT-Y181C	cytopathic effect	-	6.75 µM
CCOCn1c(Cc2ccccc2)c(C(C)C)c(=O)n(C(=O)c2ccc(OP(=O)(OCCSC(=O)C(C)(C)C)OC[C@@H]3C=C[C@H](n4cc(C)c(=O)[nH]c4=O)O3)cc2)c1=O	N119 (NNRTI-resistant RT Y181C)	RT-Y181C	ELISA	-	0.3 µM
C[C@]12CC[C@H](O)C[C@@H]1CC[C@@H]1[C@@H]2CC[C@]2(C)C(=O)[C@H](Br)C[C@@H]12	LAV	-	RT activity	-	1.1 µM
Cc1cn([C@@H]2O[C@H](CO[Si](C)(C)C(C)(C)C)C3(OS(=O)(=O)C=C3N)[C@H]2O[Si](C)(C)C(C)(C)C)c(=O)n(C)c1=O	IIIB	RT-E138K	cytopathic effect	-	>20 µg/mL
Cc1c(C(=O)N[C@@H](CSc2ccc3ccccc3c2)[C@H](O)Cc2ccccc2C(=O)NC(C)(C)C)cccc1[N+](=O)[O-]	-	-	cytopathic effect	-	>50 µg/mL
CCc1c(S(=O)(=O)Cc2cccc3ccccc23)cc(C)oc1=O	IIIB	-	MTT	-	>2 µM
Cc1cn([C@H]2C[C@H](N=[N+]=[N-])[C@@H](CO)O2)c(=O)[nH]c1=O	IIIB	-	cytopathic effect / MTT	-	<0.005 µg/mL
Nc1nc(=O)n([C@H]2CC[C@@H](CO)O2)cc1F	-	-	-	-	2 µM
Cc1c(N)nc(N)nc1OCCOCP(=O)(O)O	Clinical isolate C19	RT-M41L V118I L210W T215Y	syncytia	-	0.53 µg/mL
CN1C(=O)N(Cc2ccccc2)S(=O)(=O)c2cscc21	IIIB	-	syncytia	-	2.3 µM
CC(C)(C)NC(=O)[C@@H]1CC(=O)CN1C(=O)[C@@H](O)[C@H](Cc1ccccc1)NC(=O)[C@H](CC(N)=O)NC(=O)OCc1ccccc1	IIIB	-	p24	-	<1.5 µM
O=c1[nH]cnc2c1ncn2[C@H]1CC[C@@H](CO)O1	IIIB	-	syncytia	-	2.2 µM
Fc1cccc(F)c1C1SCc2nc3ccccc3n21	-	RT-E138K	cytopathic effect	-	1.73 µM
CCOCn1c(Cc2ccccc2)c(C(C)C)c(=O)[nH]c1=O	IIIB	-	cytopathic effect	-	0.001 µg/mL
CCOCn1c(Cc2ccccc2)c(C(C)C)c(=O)[nH]c1=O	J-2 (RT-Y181C)	RT-Y181C	cytopathic effect	-	0.081 µg/mL
Nc1cc(OCCOCP(=O)(O)O)nc(N)n1	Clinical isolate DE434.4	RT-K65R S68G T69I V75T Q151M	syncytia	-	7.5 µg/mL
Cc1c(N)cc(N)cc1C(=O)N[C@@H](CSc1ccc2ccccc2c1)[C@H](O)Cc1ccccc1C(=O)NC(C)(C)C	-	-	cytopathic effect	-	0.46 µg/mL
CC(C)=CCN1Cc2cc(Cl)cc3[nH]c(=S)n(c23)C[C@@H]1C	IIIB	RT-E138K	syncytia	-	0.311 µM

6 of the rows above, restated:

Cc1cc(NCCc2cccc3ccccc23)cc(=O)o1 ; strain: IIIB ; read by: MTT ; result: >10 µM
Cc1cc(C)nc(N2C(=O)CSC2c2c(Cl)cccc2Cl)n1 ; strain: IIIB ; read by: cytopathic effect ; result: 0.025 µM
Fc1cccc(Cl)c1C1OCc2nc3ccccc3n21 ; strain: TIBO R82150-resistant (RT K103N) ; mutations: RT-K103N ; read by: cytopathic effect / MTT ; result: >14.69 µM
CCOCn1c(Cc2ccccc2)c(C(C)C)c(=O)n(C(=O)c2ccc(OP(=O)(OCCSC(=O)C(C)(C)C)OC[C@@H]3C=C[C@H](n4cc(C)c(=O)[nH]c4=O)O3)cc2)c1=O ; strain: N119 (NNRTI-resistant RT Y181C) ; mutations: RT-Y181C ; read by: ELISA ; result: 0.3 µM
COc1ccc2c(c1)N(C(=O)OC(C)C)[C@@H](CSC)C(=S)N2 ; strain: IIIB WT ; read by: syncytia ; result: 0.00294 µM
CN1C(=O)N(Cc2ccccc2)S(=O)(=O)c2cscc21 ; strain: IIIB ; read by: syncytia ; result: 2.3 µM